Key:
[1] = biological target: T1, 突变型金黄色葡萄球菌肠毒素B mSEB(L45R,Y89A,Y94A) (Staphylococcus aureus (ATCC BAA-1556))
[2] = biological target: T1, 突变型金黄色葡萄球菌肠毒素B mSEB(L45R,Y89A,Y94A); remark: listed apart in the source

B1: 全人源SEB单克隆抗体M0313 (antibody, V domains shown)
VH: EVQLVQSGGGLVQPGGSLRLSCAASGFTLSNYGMSWVRQSPGKGLEWVSGISGGSGSTCYADFVKGRFTISRDKSKNTLSLEMNSLRAEDRAVYYCAKDREYYNSGYYYFPYQYAMDVWGQGTTVTVSS
VL: QSVLTQPPSASGTPGQRVTISCSGGRPNIGGNSVYWYQQFPGTSPKLLIYTNDQRPSGVPDRFSGSKSGTSASLAISGLRSEDEADYYCAAWDDSLSAYVFGAGTKVTVL
B1 was tested. Which EC50 [1] did it give?
Its EC50 is 4.9 ng/mL.

And the koff [2]?
The koff was 0.00273 s⁻¹.

What about the kon [2] of the same binder?
The kon was 593000 M⁻¹ s⁻¹.
